# Human monoclonal antibodies against the spike receptor-binding domain (heavy:light variable regions). IC50 against pseudoviruses bearing the spike of naturally observed variants; lower = stronger; >10 µg/ml means not reached at the top dose. No active / inactive call. The stated detection limit is 0.0005 µg/ml; values near or below 0.001 µg/ml lie at the floor of the assay.
# B1: BD-899 (protein)
# chain 1: QVQLQESGPGLVKPSQTLSLTCTVSGDSIRSGDYYWSWIRRPPGKDLEWIGYIYYNGNSYYNPSLRSRLTLSVDTSKNRFSLRLSSVTAADTAVYYCARSLWFGEFSDAFDVWGQGTLVTVSS
# chain 2: QSVLTQPPSVSAAPGQRVTISCSGSNSNIGNNYGSWYQQVPGAAPKLLIYDINKRPSGIPDRFSGSKSGTSATLAITGLQIGDEADYYCASWDSSLSAVVFGGGTKVTVL
# B2: BD-901 (protein)
# chain 1: QVQLVQSGADVKKPGSSVKVSCKASGGTFSSSDISWVRLAPGHGLEWMGKIIPTLGIPNYAEKFEGRVTITADKSANIAYMELSGLRSDDTAVYYCAKDRGYSGPGAAVYYDSWGQGTLVTVSS
# chain 2: QSVLTQPPSVSGAPGQRVTISCTGSSSNIGAGYDVHWYQQLPGTAPKLLVYRNTYRPSGVPDRFFGSKSGTSASLLITGLQAADEADYYCQSYDSSLIGSIFGGGTKLTVL
# B3: BD-906 (protein)
# chain 1: QLHLQESGPGLVKPSETLSLNCTASSGSFSWGDYYWAWIRQPPGKGPEWIGSIYYSRNTYYHPSLKSRVTISVDTSKNQFSLKLSSVTAADTAKYYCARHFRPPYYSGSGSYHYGMDVWGQGTTVTVSS
# chain 2: DIQMTQSPFFLSASVGDRVTITCRASQSIINYLNWYQQKPGKAPKLLIYTASNLQSGVPSRFSGSGSETDFTLTISSLQPEDFATYYCQQSYSIPDTFGQGTKLEIK
# B4: BD-912 (protein)
# chain 1: EEQLVQSGGGLVKPGGSLRLSCAASGFPFSAYTMNWVRQTPGKGLEWVSSISSSSTYIYYADSVKGRFTISRDNARNSLYLQLNSLRVDDTAVYYCWSCGSGSHPFDYWGQGTLVTVSS
# chain 2: QSALTQPASVSGSPGQSITVSCTGTSSDVGGFNYVFWYQQHPGKAPKLLIYDVTYRPSGVSNRFSGSKSGNTASLTISGLQAEDEADYYCTSFTTSSTWVFGGGTKVTVL
# B5: BD-914 (protein)
# chain 1: QVQLVQSGAEVTKPGSSVKVSCKTSGDTFSLYPISWVRQAPGQGLEWMGRIIPIVGIADYAQKFQGRVTITADKSTSTAYMELSSLRSEDTAIYYCARDGNQYYYDSGGDYYVNYWGQGTLITVSS
# chain 2: DIQMTQSPSSLSASVGDRVTITCQASQDIRKDLNWYRQRPGKAPKLLIYDASNLETGVPSRFSGSGSGTHFTFTISGLQPEDVATYYCQQYDNVPVTFGPGTKVDIR
# B6: BD55-557 (protein)
# chain 1: QVQLVQSGSELKKPGASVKVSCKASGYTFTTYAMNWVRQAPGQGLEWMGWINTNTGNPTYAQGFTGRFVLSLDTSVSTAYLQISSLKAEDTAVYYCARDSSVITSVAAGGTLTIAEYFQHWGQGTLVTVSS
# chain 2: SYELTQPPSVSVSPGQTARITCSGDALPKQYAYWYQQKPGQAPVLVIYKDNERPSGIPERFSGSSSGTTVTLTISGVQAEDEADYYCQSADSRYIFGGGTKLTVL
# B7: BD55-683 (protein)
# chain 1: EVQLVESGGGLVQPGGSLRLSCAASGFTFSSYWMSWVRQAPGKGLEWVANIKQDGSEKYYVDSVKGRFTISRDNAKNSLYLQMNSLRAEDTAVYYCARVPRGYYDSSGYYHEIYYFDYWGQGTLVTVSS
# chain 2: NFMLTQPHSVSESPGKTVTISCTRSSGSIASNYVQWYQQRPGSSPTTVIYEDNQRPSGVPDRFSGSIDSSSNSASLTISGLKTEDEADYYCQSYDSSNHVWVFGGGTKLTVL
# Target: SARS-CoV-2 Omicron BA.1 spike pseudovirus
# Assay: pseudovirus neutralization IC50; higher = weaker neutralization
# Description: (§1)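 Single-round VSV luciferase pseudovirus mixed with antibody dilutions for 1 h and put on Huh-7 cells for about a day; IC50 from the dose curve.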
row,Binder,pseudovirus neutralization IC50
1,B1,> 10 mg/L
2,B2,0.165 mg/L
3,B3,> 10 mg/L
4,B4,0.965 mg/L
5,B5,0.0713 mg/L
6,B6,> 10 mg/L
7,B7,> 10 mg/L

# Target: SARS-CoV-2 Omicron BA.2 spike pseudovirus
# Assay: as above
# Description: as §1
row,Binder,pseudovirus neutralization IC50
1,B1,> 10 mg/L
2,B2,0.238 mg/L
3,B3,> 10 mg/L
4,B4,1.4 mg/L
5,B5,0.046 mg/L
6,B6,> 10 mg/L
7,B7,> 10 mg/L

# Target: SARS-CoV-2 Omicron BA.2.75 spike pseudovirus
# Assay: as above
# Description: as §1
row,Binder,pseudovirus neutralization IC50
1,B1,> 10 mg/L
2,B2,0.244 mg/L
3,B3,> 10 mg/L
4,B4,0.0885 mg/L
5,B5,0.0223 mg/L
6,B6,> 10 mg/L
7,B7,> 10 mg/L

# Target: SARS-CoV-2 Omicron BA.5 spike pseudovirus
# Assay: as above
# Description: as §1
row,Binder,pseudovirus neutralization IC50
1,B1,> 10 mg/L
2,B2,1.05 mg/L
3,B3,> 10 mg/L
4,B4,> 10 mg/L
5,B5,> 10 mg/L
6,B6,> 10 mg/L
7,B7,> 10 mg/L

# Target: SARS-CoV-2 Omicron BQ.1.1 spike pseudovirus
# Assay: as above
# Description: as §1
row,Binder,pseudovirus neutralization IC50
1,B1,> 10 mg/L
2,B2,> 10 mg/L
3,B3,> 10 mg/L
4,B4,> 10 mg/L
5,B5,> 10 mg/L
6,B6,> 10 mg/L
7,B7,> 10 mg/L

# Target: SARS-CoV-2 Omicron XBB spike pseudovirus
# Assay: as above
# Description: as §1
row,Binder,pseudovirus neutralization IC50
1,B1,> 10 mg/L
2,B2,> 10 mg/L
3,B3,> 10 mg/L
4,B4,> 10 mg/L
5,B6,> 10 mg/L
6,B7,> 10 mg/L

# Target: SARS-CoV-2 early D614G spike pseudovirus
# Assay: as above
# Description: as §1
row,Binder,pseudovirus neutralization IC50
1,B1,0.052 mg/L
2,B2,0.113 mg/L
3,B3,0.017 mg/L
4,B4,0.014 mg/L
5,B5,0.012 mg/L
6,B6,> 10 mg/L
7,B7,2.89 mg/L
